A mixed list of measured activities; the numbers were collected in NIAID ChemDB.

Common to all: whole-cell or culture tests; agent: HIV-1; cells: CEM-SS; endpoint: EC50

Lines come from different laboratories, so protocols vary. ECn is the concentration giving n% inhibition of infection, replication or growth. An empty or dashed field is not shown.

structure	strain	read by	result
C[C@H]1CO[C@@H]2CN3C=C(C(=O)NCc4ccc5c(ccn5C)c4)C(=O)C(=O)C3C(=O)N12	IIIB	XTT	0.111 µM
O=C1Cc2c(cccc2-c2ccco2)C(=O)N1O	IIIB	cytopathic effect / absorbance	>10 µM
CCOC(=O)c1c(C)cc(=O)c(O)c(O)c1O	RF	cytopathic effect / absorbance	0.77 µM
COc1c(-c2cc(C)n(-c3ccccc3)n2)c(O)c(S(=O)(=O)Oc2ccc([N+](=O)[O-])cc2)c2occc12	RF	cytopathic effect / MTS	0.000029 µM
CCN(CC)C(=S)S	-	-	>100 µM
COc1c(-c2cc(C)[nH]n2)c(O)c(S(=O)(=O)OC2CCCC2)c2occc12	RF	cytopathic effect / MTS	0.000047 µM
COC(=O)c1c(C)cc(=O)c(O)c(O)c1O	RF	cytopathic effect / absorbance	>50 µM
CC(C)n1c(CNC(=O)C2=CN3C[C@H]4OC[C@H](C)N4C(=O)C3C(=O)C2=O)nc2ccccc21	IIIB	XTT	0.0861 µM
Cc1cn([C@H]2C[C@H](N=[N+]=[N-])[C@@H](COP(=O)(COc3ccccc3)OC[C@@H]3O[C@H](n4ccc(N)nc4=O)CS3)O2)c(=O)[nH]c1=O	BRU	p24 / ELISA / antigen	0.24 µM
O=C1Cc2ccc(-c3ccco3)cc2C(=O)N1O	IIIB	cytopathic effect / absorbance	>10 µM
CC(C)n1c(CNC(=O)C2=CN3C[C@H]4OC[C@H](C)N4C(=O)C3C(=O)C2=O)nc2ccc(Cl)cc21	IIIB	XTT	0.0353 µM
COCc1cc(C)nc2sc(C(=O)Nc3ccc(NC(C)=O)cc3)c(N)c12	RF	XTT	>63 µM
Cc1cn([C@@H]2C[C@@H](N=[N+]=[N-])[C@H](COP(=O)(COc3ccccc3)OC[C@H]3O[C@@H](n4cc(C)c(=O)[nH]c4=O)C[C@@H]3N=[N+]=[N-])O2)c(=O)[nH]c1=O	BRU	p24 / ELISA / antigen	0.25 µM
C[C@H]1CO[C@@H]2CN3C=C(C(=O)NCc4nc5cc(Cl)ccc5o4)C(=O)C(=O)C3C(=O)N12	IIIB	XTT	0.0636 µM
Nc1c(C(=O)Nc2cccc(C(F)(F)F)c2)sc2ncccc12	RF	XTT	>316 µM
Cc1cn([C@@H]2C[C@@H](N=[N+]=[N-])[C@H](COP(=O)(CN=[N+]=[N-])OC[C@H]3O[C@@H](n4cc(C)c(=O)[nH]c4=O)C[C@@H]3N=[N+]=[N-])O2)c(=O)[nH]c1=O	BRU	p24 / ELISA / antigen	0.18 µM
CC1=CC2NC(CNC(=O)C3=CN4C[C@H]5OC[C@H](C)N5C(=O)C4C(=O)C3=O)=NC2C=C1	IIIB	XTT	0.0386 µM
COc1c(-c2cc(C)n(-c3ccccc3)n2)c(O)c(S(=O)(=O)OC2CCCC2)c2occc12	RF	cytopathic effect / MTS	0.00004 µM
O=C1Cc2ccc(I)cc2C(=O)N1O	IIIB	cytopathic effect / absorbance	>10 µM
C[C@H]1CO[C@@H]2CN3C=C(C(=O)NCc4nncn4C)C(=O)C(=O)C3C(=O)N12	IIIB	XTT	0.0399 µM
COCP(=O)(OC[C@@H]1O[C@H](n2cc(C)c(=O)[nH]c2=O)C[C@H]1N=[N+]=[N-])OC[C@H]1O[C@@H](n2cc(C)c(=O)[nH]c2=O)C[C@@H]1N=[N+]=[N-]	BRU	p24 / ELISA / antigen	0.68 µM
COCc1cc(C)nc2sc(C(=O)Nc3ccc(C(=O)OC)cc3)c(N)c12	RF	XTT	>3 µM
Cc1nc2cc(CNC(=O)C3=CN4C[C@H]5OC[C@H](C)N5C(=O)C4C(=O)C3=O)ccc2n1C	IIIB	XTT	0.0389 µM
COc1c(-c2cc(C)on2)c(O)c(S(=O)(=O)OC2CCCC2)c2occc12	RF	cytopathic effect / MTS	0.000055 µM
NCCSSCCN	-	p24	>100 µM
COc1ccc(OS(=O)(=O)c2c3occc3c(OC)c3c(=O)cc(C)oc23)cc1	RF	cytopathic effect / MTS	0.000077 µM
O=C1Cc2cc(-c3cccc4c3sc3ccccc34)ccc2C(=O)N1O	IIIB	cytopathic effect / absorbance	>10 µM
COc1ccc(NC(=O)c2sc3nc(C)cc(C)c3c2N)cc1	RF	XTT	>63 µM
COc1ccc(N/C(C)=C\C(=O)c2c(O)c(S(=O)(=O)Oc3ccc([N+](=O)[O-])cc3)c3occc3c2OC)cc1	RF	cytopathic effect / MTS	0.000065 µM

A second listing of 3 rows from above:

structure	strain	read by	result
Cc1cn([C@H]2C[C@H](N=[N+]=[N-])[C@@H](COP(=O)(COc3ccccc3)OC[C@@H]3O[C@H](n4ccc(N)nc4=O)CS3)O2)c(=O)[nH]c1=O	BRU	p24 / ELISA / antigen	0.24 µM
Nc1c(C(=O)Nc2cccc(C(F)(F)F)c2)sc2ncccc12	RF	XTT	>316 µM
COc1c(-c2cc(C)on2)c(O)c(S(=O)(=O)OC2CCCC2)c2occc12	RF	cytopathic effect / MTS	0.000055 µM